Publication PMC3334931, “Characterization of the Single Stranded DNA Binding Protein SsbB Encoded in the Gonoccocal Genetic Island” (PLoS ONE, 2012)

Assays:
[1] = target: T1, His-SsbB (Neisseria gonorrhoeae MS11) (UniProt Q5EP75); assay: EMSA; settings: lower affinity than native, EMSA: SBA buffer (10 mM NaOH, 2 mM EDTA, boric acid to pH 7.5), optional 10 mM MgCl2 and/or NaCl up to 500 mM, 4 C 15 min, recombinant protein, residues 1-143, protein details: N-terminal 10xHis, single-stranded DNA
T1 sequence (looked up): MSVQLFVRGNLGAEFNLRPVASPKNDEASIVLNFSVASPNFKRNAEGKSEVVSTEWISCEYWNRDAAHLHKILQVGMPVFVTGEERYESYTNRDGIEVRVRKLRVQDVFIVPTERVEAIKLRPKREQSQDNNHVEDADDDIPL

[2] = target: T2, OneSTrEP-SsbB (Neisseria gonorrhoeae MS11) (UniProt Q5EP75); assay: EMSA; settings: no difference from native, EMSA: SBA buffer (10 mM NaOH, 2 mM EDTA, boric acid to pH 7.5), optional 10 mM MgCl2 and/or NaCl up to 500 mM, 4 C 15 min, recombinant protein, residues 1-143, protein details: N-terminal OneSTrEP, single-stranded DNA
T2 sequence (looked up): T1 sequence (looked up)

Row | Sequence | binding result ([1]; label: 5' Cy3) | binding result ([2]; label: 5' Cy3) | binding result ([1]; label: 5' 32P) | binding result ([2]; label: 5' 32P)
1 | TTTTTTTTTTTTTTTTTTTTTTTTTTTTTTTTTTTTTTTTTTTTTTTTTTTTTTTTTTTTTTTTTTTTTTTTTTT [Cy3-dT75] | binds more weakly | binds | – | –
2 | TTTTTTTTTTTTTTTTTTTTTTTTTTTTTTTTTTTTTTTTTTTTTTTTTTTTTTTTTTTTTTTTTTTTTTTTTTT [32P-dT75] | – | – | binds more weakly | binds

For at least one entry, the source does not settle the construct or the ends of the probe. For some of these results: The comparison behind a weaker result is the experiment's own reference, which may not be listed here. At least one verdict was read from the data and is not stated in words by the source. Where a protein sequence is shown, tags need not be part of it.
